PubChem BioAssay AID624099 | ICCB-Longwood | 2012
Aim: 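Knock-downs relieving repression by E2 of an HPV18 LCR luciferase reporter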 (primary screen). System: human C33A cervical carcinoma cells (HPV-negative) stably expressing BPV1 E2 and an HPV18 LCR luciferase reporter. Knock-down reagent: siRNA pool against human genes, 40 nM. Duration: 72 h. Measurement: 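HPV18 LCR reporter light per well, converted to plate-wise z-scores that exclude control wells, and averaged over triplicate plates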. Direction: mean z-score and z-score: higher = stronger reporter signal, weaker E2 silencing. Call rule: 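Hit if mean z-score reaches 2 and two or more of three replicate z-scores also reach 2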.
This is an unselected part of about 21,000 reagents tested. 497 of all reagents (2.4%) count as active. 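Higher z means weaker E2 silencing; only reporter increases were scored, and knock-downs that hurt cell survival may mask genuine repressor factors.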

The first 3 entries as a preview:
WNT5B (GeneID 81029) → mean z-score = 1.66; z-score, replicate A = 1.59; z-score, replicate B = 1.74; z-score, replicate C = 1.65; Call = inactive
HOXD11 (GeneID 3237) → mean z-score = -0.3; z-score, replicate A = -0.27; z-score, replicate B = -0.34; z-score, replicate C = -0.3; Call = inactive
TCP10L2 (GeneID 401285) → mean z-score = -0.29; z-score, replicate A = -0.27; z-score, replicate B = -0.41; z-score, replicate C = -0.21; Call = inactive

The listing, from the first entry:
WNT5B (GeneID 81029) → mean z-score = 1.66; z-score, replicate A = 1.59; z-score, replicate B = 1.74; z-score, replicate C = 1.65; Call = inactive
HOXD11 (GeneID 3237) → mean z-score = -0.3; z-score, replicate A = -0.27; z-score, replicate B = -0.34; z-score, replicate C = -0.3; Call = inactive
TCP10L2 (GeneID 401285) → mean z-score = -0.29; z-score, replicate A = -0.27; z-score, replicate B = -0.41; z-score, replicate C = -0.21; Call = inactive
HSP90AB1 (GeneID 3326) → mean z-score = 0.46; z-score, replicate A = 0.5; z-score, replicate B = 0.73; z-score, replicate C = 0.14; Call = inactive
RPRML (GeneID 388394) → mean z-score = -0.79; z-score, replicate A = -0.83; z-score, replicate B = -0.85; z-score, replicate C = -0.68; Call = inactive
ZNF706 (GeneID 51123) → mean z-score = 0.42; z-score, replicate A = -0.08; z-score, replicate B = 0.81; z-score, replicate C = 0.53; Call = inactive
MT1B (GeneID 4490) → mean z-score = 0.09; z-score, replicate A = -0.09; z-score, replicate B = 0.29; z-score, replicate C = 0.05; Call = inactive
SLC38A10 (GeneID 124565) → mean z-score = 0.23; z-score, replicate A = 0.41; z-score, replicate B = 0.21; z-score, replicate C = 0.09; Call = inactive
BAG2 (GeneID 9532) → mean z-score = 0.24; z-score, replicate A = -0.06; z-score, replicate B = 0.21; z-score, replicate C = 0.58; Call = inactive
IQGAP3 (GeneID 128239) → mean z-score = -0.48; z-score, replicate A = -0.31; z-score, replicate B = -0.76; z-score, replicate C = -0.38; Call = inactive
TP53INP2 (GeneID 58476) → mean z-score = 0.78; z-score, replicate A = 0.93; z-score, replicate B = 1.02; z-score, replicate C = 0.39; Call = inactive
MZB1 (GeneID 51237) → mean z-score = -0.94; z-score, replicate A = -0.53; z-score, replicate B = -1.13; z-score, replicate C = -1.17; Call = inactive
LRFN3 (GeneID 79414) → mean z-score = -0.1; z-score, replicate A = -0.62; z-score, replicate B = 0.01; z-score, replicate C = 0.32; Call = inactive
TBC1D3F (GeneID 84218) → mean z-score = -0.1; z-score, replicate A = 0.16; z-score, replicate B = -0.22; z-score, replicate C = -0.24; Call = inactive
TRPV3 (GeneID 162514) → mean z-score = -0.9; z-score, replicate A = -0.73; z-score, replicate B = -0.76; z-score, replicate C = -1.2; Call = inactive
WDFY4 (GeneID 57705) → mean z-score = 0.48; z-score, replicate A = 0.07; z-score, replicate B = 0.89; z-score, replicate C = 0.49; Call = inactive
MRPS18B (GeneID 28973) → mean z-score = -0.16; z-score, replicate A = -0.06; z-score, replicate B = 0; z-score, replicate C = -0.42; Call = inactive
FLAD1 (GeneID 80308) → mean z-score = 0.44; z-score, replicate A = 0.22; z-score, replicate B = 0.41; z-score, replicate C = 0.7; Call = inactive
SPATA22 (GeneID 84690) → mean z-score = 0.86; z-score, replicate A = 0.67; z-score, replicate B = 0.93; z-score, replicate C = 0.97; Call = inactive
EIF2B2 (GeneID 8892) → mean z-score = -1.62; z-score, replicate A = -1.49; z-score, replicate B = -1.76; z-score, replicate C = -1.6; Call = inactive
PLXNB1 (GeneID 5364) → mean z-score = -0.74; z-score, replicate A = -0.86; z-score, replicate B = -0.83; z-score, replicate C = -0.52; Call = inactive
PMS2P3 (GeneID 5387) → mean z-score = 1.17; z-score, replicate A = 1; z-score, replicate B = 1.32; z-score, replicate C = 1.19; Call = inactive
C6orf136 (GeneID 221545) → mean z-score = 0.33; z-score, replicate A = 0.42; z-score, replicate B = 0.32; z-score, replicate C = 0.26; Call = inactive
TOP3B (GeneID 8940) → mean z-score = -1.15; z-score, replicate A = -1.34; z-score, replicate B = -1.03; z-score, replicate C = -1.09; Call = inactive
NDUFA7 (GeneID 4701) → mean z-score = -0.05; z-score, replicate A = 0.02; z-score, replicate B = -0.09; z-score, replicate C = -0.07; Call = inactive
TATDN3 (GeneID 128387) → mean z-score = 0.72; z-score, replicate A = 0.78; z-score, replicate B = 0.65; z-score, replicate C = 0.73; Call = inactive
LOC155081 (retired record) (GeneID 155081) → mean z-score = -1.03; z-score, replicate A = -0.88; z-score, replicate B = -1.16; z-score, replicate C = -1.04; Call = inactive
